In paper PMC12714728 (2025):

Experiments:
[1] = target: H1N1 A/New Caledonia/20/1999 hemagglutinin ectodomain, biotinylated HA0 (influenza A virus A/New …, biotin on the BirA site); assay: SPR
[2] = target: H1N1 A/California/07/2009 hemagglutinin ectodomain, biotinylated HA0 (influenza A virus A/California/07/2009 …, biotin on the BirA site); assay: SPR

Question: CYRDPLGVAGEMC (disulfide between the two Cys (sidechain-sidechain cyclization)) [cyclic peptide CP13] was tested. Which koff [1] did it give?
Answer: Its koff is 0.81 s⁻¹.

Question: What about the koff [2] of the same binder?
Answer: The koff was 1.49 s⁻¹.
